# Kdimer by position in the HIV-1 leader RNA

RNA: 5' end of the HIV-1 NL4-3 genome, made in vitro. Positions 1-437 read:
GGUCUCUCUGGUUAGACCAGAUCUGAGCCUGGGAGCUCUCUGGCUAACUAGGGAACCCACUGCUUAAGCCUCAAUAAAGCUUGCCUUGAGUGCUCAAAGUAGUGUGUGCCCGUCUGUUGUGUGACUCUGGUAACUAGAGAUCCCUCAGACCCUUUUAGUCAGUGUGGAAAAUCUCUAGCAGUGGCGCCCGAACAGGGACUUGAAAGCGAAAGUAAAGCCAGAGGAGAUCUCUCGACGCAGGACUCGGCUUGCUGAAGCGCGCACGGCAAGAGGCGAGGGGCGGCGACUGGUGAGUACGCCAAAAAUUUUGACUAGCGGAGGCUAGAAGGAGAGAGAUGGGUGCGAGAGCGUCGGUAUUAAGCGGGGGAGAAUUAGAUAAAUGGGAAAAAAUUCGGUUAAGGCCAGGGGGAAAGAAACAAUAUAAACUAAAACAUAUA

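Randomly mutated transcripts starting with one, two or three G (1G, 2G, 3G), capped or uncapped, were folded for 30 min at 37 °C. Monomer and dimer bands were cut from native gels after folding in high salt (300 mM KCl, 5 mM MgCl2) or low salt (40 mM KCl, 0.1 mM MgCl2). Mutation frequencies in the two bands give Kdimer.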

Values are log2 Kdimer, the median over the changes at each position: higher means that changes there hinder dimer formation, below 0 that they favour it.
One numbering serves 1G, 2G and 3G.
A position is written with its base where known.
The source gives no letters past position 437.

C44: 3G uncapped high-salt 0.07; 1G capped low-salt -0.15; 3G uncapped low-salt -0.09.
G53: 3G uncapped high-salt -0.14; 1G capped low-salt 0.00; 3G uncapped low-salt 0.11.
G68: 3G uncapped high-salt 0.32; 1G capped low-salt 0.22; 3G uncapped low-salt -0.18.
U81: 3G uncapped high-salt 0.07; 1G capped low-salt 0.20; 3G uncapped low-salt 0.39.
C85: 3G uncapped high-salt -0.40; 1G capped low-salt -0.20; 3G uncapped low-salt -0.48.
U105: 3G uncapped high-salt 0.00; 1G capped low-salt 0.13; 3G uncapped low-salt -0.03.
U122: 3G uncapped high-salt 0.13; 1G capped low-salt 0.36; 3G uncapped low-salt 0.81.
G139: 3G uncapped high-salt 0.15; 1G capped low-salt 0.48; 3G uncapped low-salt 0.51.
U141: 3G uncapped high-salt 0.14; 1G capped low-salt 0.10; 3G uncapped low-salt 0.53.
A161: 3G uncapped high-salt 0.05; 1G capped low-salt -0.01; 3G uncapped low-salt 0.11.
A191: 3G uncapped high-salt 0.11; 1G capped low-salt -0.13; 3G uncapped low-salt -0.10.
C199: 3G uncapped high-salt 0.09; 1G capped low-salt 0.00; 3G uncapped low-salt -0.11.
G212: 3G uncapped high-salt -0.64; 1G capped low-salt -0.57; 3G uncapped low-salt -0.77.
G317: 3G uncapped high-salt 0.15; 1G capped low-salt 0.19; 3G uncapped low-salt 0.19.
G325: 3G uncapped high-salt 0.41; 1G capped low-salt 0.55; 3G uncapped low-salt 0.75.
U358: 3G uncapped high-salt 0.06; 1G capped low-salt -0.06; 3G uncapped low-salt -0.11.
U377: 3G uncapped high-salt 0.04; 1G capped low-salt 0.03; 3G uncapped low-salt 0.00.
A419: 3G uncapped high-salt 0.08; 1G capped low-salt 0.02; 3G uncapped low-salt -0.02.
U427: 3G uncapped high-salt 0.03; 1G capped low-salt 0.06; 3G uncapped low-salt 0.06.
A429: 3G uncapped high-salt 0.01; 1G capped low-salt 0.01; 3G uncapped low-salt -0.09.
position 446: 3G uncapped high-salt 0.16; 1G capped low-salt -0.01; 3G uncapped low-salt -0.02.
position 459: 3G uncapped high-salt 0.08; 1G capped low-salt -0.09; 3G uncapped low-salt 0.04.
position 460: 3G uncapped high-salt -0.08; 1G capped low-salt 0.06; 3G uncapped low-salt -0.01.
position 468: 3G uncapped high-salt 0.06; 1G capped low-salt 0.03; 3G uncapped low-salt -0.27.
position 469: 3G uncapped high-salt 0.13; 1G capped low-salt -0.14; 3G uncapped low-salt -0.09.
position 485: 3G uncapped high-salt 0.08; 1G capped low-salt 0.02; 3G uncapped low-salt 0.20.
position 514: 3G uncapped high-salt -0.05; 1G capped low-salt -0.08; 3G uncapped low-salt -0.07.

A selection of 3 entries from above:

position,3G uncapped high-salt,1G capped low-salt,3G uncapped low-salt
514,-0.05,-0.08,-0.07
A419,0.08,0.02,-0.02
U358,0.06,-0.06,-0.11

Source: Ye et al. 2022 (doi:10.1038/s41594-022-00746-2), supplementary data.